A mixed list of measured activities; the numbers were collected in NIAID ChemDB.

Shared fields: enzyme or target tests

a–b is a range or a potency band. Fold resistance has wild type as its base. Conditions beyond the fields shown may differ between rows. An empty or dashed field is not shown. ICn: concentration for n% inhibition. Inhibition is in % at the dose shown (toxicity tests: loss of growth or viability).

smiles | strain or isolate | mutations | dose | target | species | method | measure | result
O=C(O)c1cnn2c(-c3cccc(-c4ccccc4F)c3)ccnc12 | - | - | - | RNA-dependent RNA polymerase | Hepatitis C virus | - | IC50 | >10 µM
O=C(O)CCc1ccc(N2C(=O)C(=Cc3ccc(-c4ccc(Cl)c(Cl)c4)o3)SC2=S)cc1 | - | - | - | NS5 polymerase | Bovine viral diarrhea virus | - | IC50 | ≤1 µM
Nc1ccc(-c2ccc(Cl)cc2)c(-c2ccc3cc(-c4nc5cc(C(=O)O)ccc5n4C4CCCCC4)ccc3n2)c1 | - | - | 100 µM | NS5B polymerase | Hepatitis C virus | - | inhibition | 101%
O=C(N[C@H](Cc1ccccc1)C(=O)O)c1cnn2c(C3CCCCC3)c(-c3ccc(OCc4ccccc4)cc3)cnc12 | - | - | - | RNA-dependent RNA polymerase | Hepatitis C virus | - | IC50 | 1–10 µM
O=C1c2c(O)c(=O)cc(COc3ccccc3)n2CCN1Cc1ccc(Cl)c(Cl)c1 | - | - | - | Integrase | HIV-1 | ELISA | IC50 | 0.01–0.1 µM
COc1cccc(-c2cncc(N3CCN(c4ccccc4OC)CC3)n2)c1 | - | - | - | UL97 kinase | Cytomegalovirus | - | IC50 | <10 µM
O=C(O)c1cc2nc(-c3ccc(Cl)cc3)cc(-c3ccc(OCc4ccccc4)cc3)n2n1 | - | - | - | RNA-dependent RNA polymerase | Hepatitis C virus | - | IC50 | 1–10 µM
O=C1c2c(O)c(=O)c(-c3nccs3)cn2CCN1Cc1ccc(Cl)c(F)c1 | - | - | - | Integrase | HIV-1 | ELISA | IC50 | <0.01 µM
O=C(O)c1ccc(-n2c(O)c(C=c3cc/c(=C4\C=c5ccccc5=N4)o3)sc2=S)cc1 | - | - | - | NS5 polymerase | Bovine viral diarrhea virus | - | IC50 | ≤1 µM
O=C(Nc1nnc(NC2CCc3ccccc32)s1)c1cccc([N+](=O)[O-])c1 | - | - | - | Polymerase | Human cytomegalovirus | - | IC50 | >25 µM
c1ccc(N2CCN(c3cncc(-c4ccc5ccccc5c4)n3)CC2)nc1 | - | - | - | UL97 kinase | Cytomegalovirus | - | IC50 | <1 µM
O=C1NC(=S)SC1=Cc1ccc(-c2cc([N+](=O)[O-])ccc2Cl)o1 | - | - | - | NS5 polymerase | Bovine viral diarrhea virus | - | IC50 | ≤1 µM
O=C(Nc1nnc(NCCCn2ccnc2)s1)c1ccc(Cl)c(Cl)c1 | - | - | - | Polymerase | Human cytomegalovirus | - | IC50 | >25 µM
CSc1ccc(-c2cncc(N3CCN(c4ccccc4F)CC3)n2)cc1 | - | - | - | UL97 kinase | Cytomegalovirus | - | IC50 | <10 µM
O=C(O)c1ccc2c(c1)nc(-c1ccc3nc(-c4ccccc4)c(-c4ccccc4)cc3c1)n2C1CCCCC1 | - | - | 100 µM | NS5B polymerase | Hepatitis C virus | - | inhibition | 99.9%
COc1ccc(C(C)C)cc1-c1cncc(N2CCN(c3ccncc3)CC2)n1 | - | - | 10 µM | UL97 kinase | Cytomegalovirus | - | inhibition | >15%
CC(=O)Nc1cn2c(C)cn(Cc3cccc(Cl)c3)c(=O)c2c(O)c1=O | - | - | - | Integrase | HIV-1 | ELISA | IC50 | 0.01–0.1 µM
O=C(O)c1ccc(-c2ccc(C=C3SC(=S)N(c4ccc(C(=O)O)cc4)C3=O)o2)cc1 | - | - | - | NS5 polymerase | Bovine viral diarrhea virus | - | IC50 | ≤1 µM
COc1cccc(N2CCN(c3cncc(-c4ccc(CO)cc4)n3)CC2)c1 | - | - | - | UL97 kinase | Cytomegalovirus | - | IC50 | <10 µM
O=C(O)c1cc2nc(-c3ccc(OCc4cccc(C(F)(F)F)c4)cc3)c(C3CCCCC3)c(=O)n2[nH]1 | - | - | - | RNA-dependent RNA polymerase | Hepatitis C virus | - | IC50 | 1–10 µM
CC(C(=O)O)N1C(=O)C(=Cc2ccc(-c3cc(C(F)(F)F)ccc3Cl)o2)SC1=S | - | - | - | NS5 polymerase | Bovine viral diarrhea virus | - | IC50 | ≤1 µM
Cc1cccc(-c2cncc(N3CCN(c4ccc(Cl)cc4)CC3)n2)c1 | - | - | 10 µM | UL97 kinase | Cytomegalovirus | - | inhibition | >15%
Clc1cc(CN2CCCNCCNCCCNCC2)cc(Cl)n1 | - | CXCR4-D171N | - | CXCR4 | - | - | fold resistance | 12.6
O=C(Cc1ccncc1)Nc1cn2ccn(Cc3cccc(Cl)c3)c(=O)c2c(O)c1=O | - | - | - | Integrase | HIV-1 | ELISA | IC50 | 0.01–0.1 µM
COc1ccc(-c2ccc(Cl)cc2)c(-c2ccc3cc(-c4[nH]c5cc(C(=O)O)ccc5c4C4CCCCC4)ccc3n2)c1 | - | - | 100 µM | NS5B polymerase | Hepatitis C virus | - | inhibition | 98.87%
COc1cc(NCc2cnc3nc(N)nc(N)c3n2)cc(OC)c1OC | TYPE 1 | - | - | Dihydrofolate reductase | Cryptosporidium parvum | - | IC50 | 1.3 µM
O=C(O)c1ccc2c(c1)nc(-c1ccc3nc(-c4cc5c(cc4-c4ccc(Cl)cc4)OCCCO5)ccc3c1)n2C1CCCCC1 | - | - | 100 µM | NS5B polymerase | Hepatitis C virus | - | inhibition | 100%
CC1(C)C2CC[C@@H](CNc3nnc(NC(=O)CCCCCl)s3)C1C2 | - | - | - | Polymerase | Human cytomegalovirus | - | IC50 | >25 µM
Cc1ccc(N2CCN(c3cncc(-c4ccc(C(F)(F)F)cc4)n3)CC2)c(C)c1 | - | - | - | UL97 kinase | Cytomegalovirus | - | IC50 | <100 µM
COc1ccc(OC)c(CCc2sc3nc(N)nc(N)c3c2C)c1 | TYPE 2 | - | - | Dihydrofolate reductase | Cryptosporidium parvum | - | IC50 | >10 µM
O=C(O)c1cc2nc(-c3ccc(Cl)cc3)cc(NCc3ccc(Cl)cc3)n2n1 | - | - | - | RNA-dependent RNA polymerase | Hepatitis C virus | - | IC50 | >10 µM
COc1ccc(OC)c(NCc2cnc3nc(N)nc(N)c3n2)c1 | TYPE 1 | - | - | Dihydrofolate reductase | Cryptosporidium parvum | - | IC50 | 3.2 µM
O=C1c2c(O)c(=O)c(-c3ncccn3)cn2CCN1Cc1cccc(Cl)c1 | - | - | - | Integrase | HIV-1 | ELISA | IC50 | 0.01–0.1 µM
OCc1ccc(-c2cncc(N3CCN(c4ccncc4)CC3)n2)cc1 | - | - | 1 µM | UL97 kinase | Cytomegalovirus | - | inhibition | <50%
COc1ccc(-c2ccc(C=C3SC(=S)N(c4ccc(C(=O)O)cc4)C3=O)o2)nn1 | - | - | - | NS5 polymerase | Bovine viral diarrhea virus | - | IC50 | ≤1 µM
CCOC(=O)c1cnn2c(C(F)(F)F)cc(-c3ccc(OC)cc3)nc12 | - | - | - | RNA-dependent RNA polymerase | Hepatitis C virus | - | IC50 | >10 µM
O=C(Nc1nnc(NCCc2ccccc2)s1)c1cccc([N+](=O)[O-])c1 | - | - | - | Polymerase | Human cytomegalovirus | - | IC50 | >25 µM
Cc1cc(-c2ccc(C=C3SC(=S)NC3=O)o2)oc1C | - | - | - | NS5 polymerase | Bovine viral diarrhea virus | - | IC50 | ≤1 µM
CC(C)Cc1c(-c2ccc(OCc3ccccc3)cc2)cnc2c(-c3nn[nH]n3)cnn12 | - | - | - | RNA-dependent RNA polymerase | Hepatitis C virus | - | IC50 | 1–10 µM
O=C(O)c1ccc(-n2c(O)c(C=c3ccc(=C4N=C(Cl)C(Cl)=N4)o3)sc2=S)cc1 | - | - | - | NS5 polymerase | Bovine viral diarrhea virus | - | IC50 | ≤1 µM
O=C(O)c1cnc2c(c1)nc(-c1ccc3nc(-c4cc(O)ccc4-c4ccc(Cl)cc4)ccc3c1)n2C1CCCCC1 | - | - | 100 µM | NS5B polymerase | Hepatitis C virus | - | inhibition | 100%
O=C(O)CN1C(=O)C(=Cc2ccc(-c3cc(C(F)(F)F)ccc3Cl)o2)SC1=S | - | - | - | NS5 polymerase | Bovine viral diarrhea virus | - | IC50 | ≤1 µM
CN(C)CCNC(=O)c1ccc(-c2ccccc2)c(-c2ccc3cc(-c4nc5cc(C(=O)O)ccc5n4C4CCCCC4)ccc3n2)c1 | - | - | 33 µM | NS5B polymerase | Hepatitis C virus | - | inhibition | 98.26%
O=C(/C=C/c1ccccc1Cl)Nc1nnc(NCCCCc2ccccc2)s1 | - | - | - | Polymerase | Human cytomegalovirus | - | IC50 | >25 µM
Clc1ccc(N2CCN(c3cncc(-c4ccoc4)n3)CC2)cc1 | - | - | - | UL97 kinase | Cytomegalovirus | - | IC50 | <100 µM
COc1cc(CCNc2ccc3nc(N)nc(N)c3c2Cl)cc(OC)c1OC | TYPE 1 | - | - | Dihydrofolate reductase | Cryptosporidium parvum | - | IC50 | >10 µM
COc1ccc(-c2ccc(Cl)cc2)c(-c2ccc3cc(-c4nc5cc(C(=O)O)ccc5n4CC4CC4)ccc3n2)c1 | - | - | 33 µM | NS5B polymerase | Hepatitis C virus | - | inhibition | 99.98%
COc1ccccc1C(=O)Nc1nnc(NCCc2ccc(S(N)(=O)=O)cc2)s1 | - | - | - | Polymerase | Human cytomegalovirus | - | IC50 | >25 µM
O=c1c(-c2cc3ccccc3o2)cn2ccn(Cc3cccc(Cl)c3)c(=O)c2c1O | - | - | - | Integrase | HIV-1 | ELISA | IC50 | 0.01–0.1 µM
Cc1noc(C)c1-c1ccc(-c2nc3cc(C(=O)O)[nH]n3c(=O)c2C2CCCCC2)cc1 | - | - | - | RNA-dependent RNA polymerase | Hepatitis C virus | - | IC50 | 1–10 µM
CC(C)(C(=O)c1cn2c(c(O)c1=O)C(=O)N(Cc1cccc(Cl)c1)CC2)c1ccccc1 | - | - | - | Integrase | HIV-1 | ELISA | IC50 | 0.01–0.1 µM
O=C(O)c1ccc2c(c1)nc(-c1ccc3nc(-c4cccc(C(=O)N5CCCC5)c4)ccc3c1)n2C1CCCCC1 | - | - | 33 µM | NS5B polymerase | Hepatitis C virus | - | inhibition | 97.76%
CCCOc1ccc(CN2CCn3cc(-c4nccs4)c(=O)c(O)c3C2=O)cc1Cl | - | - | - | Integrase | HIV-1 | ELISA | IC50 | 0.01–0.1 µM
CCSCCNc1nnc(NC(=O)c2ccc(Br)cc2)s1 | - | - | - | Polymerase | Human cytomegalovirus | - | IC50 | >25 µM
O=c1ccn2ccn(Cc3cccc(Cl)c3)c(=O)c2c1O | - | - | - | Integrase | HIV-1 | ELISA | IC50 | 0.01–0.1 µM
COc1cc(O)c(-c2ccc3cc(-c4nc5cc(C(=O)O)ccc5n4C4CCCCC4)ccc3n2)c(OC)c1 | - | - | 33 µM | NS5B polymerase | Hepatitis C virus | - | inhibition | 102%

Again, the opening 3 rows:

smiles,strain or isolate,mutations,dose,target,species,method,measure,result
O=C(O)c1cnn2c(-c3cccc(-c4ccccc4F)c3)ccnc12,-,-,-,RNA-dependent RNA polymerase,Hepatitis C virus,-,IC50,>10 µM
O=C(O)CCc1ccc(N2C(=O)C(=Cc3ccc(-c4ccc(Cl)c(Cl)c4)o3)SC2=S)cc1,-,-,-,NS5 polymerase,Bovine viral diarrhea virus,-,IC50,≤1 µM
Nc1ccc(-c2ccc(Cl)cc2)c(-c2ccc3cc(-c4nc5cc(C(=O)O)ccc5n4C4CCCCC4)ccc3n2)c1,-,-,100 µM,NS5B polymerase,Hepatitis C virus,-,inhibition,101%